A mixed list of measured activities; the numbers were collected in NIAID ChemDB.

Shared fields: tests on isolated targets; agent: Candida albicans

ICn is the concentration giving n% inhibition.

compound	target	strain or isolate	endpoint	dose	result
CCCCNC(=O)[C@@H](C[C@H](O)[C@H](CC1CCCCC1)NC(=O)[C@@H](CCCC)N1CCN(C(=O)N2CCN(C)CC2)[C@H](Cc2ccccc2)C1=O)C(C)C	Secreted aspartic proteinase	-	IC50	-	0.025 µM
C=C1CC[C@H]2C(C)(C)CCC[C@]2(C)[C@H]1C/C(OS(=O)(=O)[O-])=C(\C)CCC/C(C)=C/Cc1cc(O)ccc1O.[Na+]	Isocitrate lyase	ATCC 10231	IC50	-	54.1 µg/mL
O=C1NC(=O)c2c1c1c3ccccc3[nH]c1c1c2c2ccccc2n1[C@@H]1O[C@H](CO)[C@@H](O)[C@H](O)[C@H]1O	Protein kinase C	-	IC50	-	>100 µM
CCCCC/C=C\C=C\C(=O)OC[C@H]1O[C@@H](O[C@H]2[C@H](OC(=O)/C(C)=C/C=C/CC(O)C(C)CC)[C@@H](O)[C@H](c3c(O)cc(O)cc3CO)O[C@@H]2CO)[C@H](O)[C@@H](O)[C@H]1O	Glucan synthase	-	IC50	-	12.9 µg/mL
COc1ccc(CNc2cnc(N)nc2N)cc1OC	Dihydrofolate reductase	-	IC50	-	125.8 µM
CC(CCC[NH+](C)C)C1CC[C@@]2(C)C3=C(CCC12C)C1(C)CCC(O)C(C)(C)C1CC3	C24-methyltransferase	-	IC50	-	3 µM
CC(=O)N[C@@H](CO)[C@@H](O)[C@H](O)[C@H](O)COP(=O)(O)O	Phosphoglucose isomerase	-	IC50	-	76 µM
O=C(CCCCSc1nc(-c2ccccc2)cc(=O)[nH]1)NO	HDAC enzyme	-	IC50	-	0.003 µg/mL
CCC(C)CC(C)CCCCCCCCC(=O)NC1C[C@@H](O)[C@@H](O)NC(=O)[C@@H]2[C@@H](O)CCN2C(=O)[C@H]([C@@H](O)CC(N)=O)NC(=O)[C@H]([C@H](O)[C@@H](O)c2ccc(OP(=O)([O-])O)cc2)NC(=O)[C@@H]2C[C@@H](O)CN2C(=O)[C@H]([C@H](C)O)NC1=O.[Na+]	Beta-(1 3)-glucan synthase	MY1028	IC50	-	>10 µM
CC1=CC[C@H]2C(C)(C)CCC[C@]2(C)[C@H]1C/C(OS(=O)(=O)[O-])=C(\C)CCC/C(C)=C/Cc1cc(O)ccc1O	Isocitrate lyase	ATCC 10231	IC50	-	>100 µg/mL
OC(Cn1cncn1)(Cn1cncn1)c1ccc(F)cc1F	Lanosterol 14-alpha demethylase	652	IC50	-	0.065 µM
CCCCNC(=O)[C@@H](C[C@H](O)[C@H](CC1CCCCC1)NC(=O)[C@H](CCCC)N1CCN(C(=O)N2CCN(C)CC2)[C@@H](Cc2ccccc2)C1=O)C(C)C	Secreted aspartic proteinase	-	IC50	-	0.002 µM
Cc1cc(Cl)cc2c(C(=O)O)cc(-c3ccc(Br)cc3)nc12	Prolyl-tRNA synthetase	-	IC50	-	0.005 µM
CC(CCC=C1CC1)C1CCC2C3=C(CCC21C)C1(C)CCC(O)CC1CC3	C24-methyltransferase	-	Ki	-	3 µM
CC(C(O)(Cn1cncn1)c1ccc(F)cc1F)S(C)(=O)=O	Lanosterol 14-alpha demethylase	652	IC50	-	0.12 µM
c1ccc2c(c1)-c1nccc3ccnc-2c13	Topoisomerase I	-	IC50	-	20 µM
COCCCOc1cc(C[C@@H](C[C@H](N)[C@@H](O)C[C@H](C(=O)NCC(C)(C)C(N)=O)C(C)C)C(C)C)ccc1OC	Secreted aspartic protease	MTCC-227(ATCC 10231)	inhibition	500 µg/mL	>50%

2 of the rows above, restated:

compound	target	strain or isolate	endpoint	dose	result
c1ccc2c(c1)-c1nccc3ccnc-2c13	Topoisomerase I	-	IC50	-	20 µM
CC(C(O)(Cn1cncn1)c1ccc(F)cc1F)S(C)(=O)=O	Lanosterol 14-alpha demethylase	652	IC50	-	0.12 µM

Inhibition is in % at the dose shown (toxicity tests: loss of growth or viability). Blank or dashed fields: not listed here. Neighbouring rows are from separate reports.